Results of unrelated studies side by side (data: NIAID ChemDB).

Common to all: whole-cell or culture tests; organism: Mycobacterium tuberculosis

a–b is a range or a potency band. A number after MIC or MFC names an inhibition level or a share of isolates. Lines come from different laboratories, so protocols vary. Percent inhibition refers to the dose given; in toxicity tests it is the harm to the cells. MIC bound: limit read from a one-dose screen. Blank or dashed fields: not listed here. ECn: concentration that inhibits the pathogen or its effect by n%.

compound	changes	method	strain	conditions	endpoint	dose	cell line	result
O=C(NNC(=S)Nc1ccc(C(=O)O)c(O)c1)c1ccncc1		resazurin	H37Rv		inhibition	12.5 µg/mL		96%
CC1CCOn2c1nc1ccccc1c2=O		BACTEC	H37Rv		MIC bound			>12.5 µg/mL
Cc1cc2oc(=O)c(C(=O)/C=C/c3ccccn3)c(O)c2cc1C	Isoniazid-resistant	agar	INHR-MTB		MIC90			>6.25 µg/mL
CO[C@@H]1C[C@@H](C[C@H]2CC[C@H](C)[C@H]([C@@H](C)C(=O)O)O2)O[C@]2(O[C@](C)([C@H]3CC[C@@](C)([C@@H]4O[C@@H]([C@H]5O[C@@](O)(CO)[C@H](C)C[C@@H]5C)C[C@@H]4C)O3)C[C@H]2C)[C@@H]1C		resazurin	H37Rv		MIC			1.25 µg/mL
Cc1ccc(-c2n[nH]c(=O)n2N2C(=O)C=CC2=O)cc1		BACTEC	H37Rv		MIC bound			>12.5 µg/mL
COc1cc(C2=NN(C(=O)COc3ccc4ccccc4c3)[C@H](Cc3ccccc3)C2)c(C)cc1OCC(=O)O			Isoniazid-resistant		inhibition	6.25 µg/mL		20%
OCCOCn1nncc1Cn1ncc2c(NCc3ccccc3)ncnc21		BACTEC	H37Rv		EC50			>6.25 µg/mL
Cc1nn(-c2ccccc2)c(Cl)c1-c1nc(N)nc2c1c(C)nn2-c1cccc(S(=O)(=O)O)c1		resazurin	H37Rv		MIC			3.25 µg/mL
CO[C@H]1/C=C/O[C@@]2(C)Oc3c(C)c(=O)c4c(O)c(c5[nH]c6ccccc6nc5c4c3C2=O)NC(=O)/C(C)=C\C=C\[C@H](C)[C@H](O)[C@@H](C)[C@@H](O)[C@@H](C)[C@H](OC(C)=O)[C@@H]1C					MIC			0.5 µg/mL
CCCNC(=O)Nc1ccc(C)c(Cl)c1		BACTEC	H37Rv		MIC bound			>12.5 µg/mL
O=C(Nc1ccc(C(=O)O)c(O)c1)NC1CCCCC1		broth dilution	H37Rv		MIC90			<12.5 µg/mL
CO/N=C(\C(=O)N[C@@H]1C(=O)N2C(C(=O)O)=C(COC(C)=O)CS[C@H]12)c1csc(N)n1					inhibition	100 µg/mL		42%
Cc1cc2oc(=O)c(C3=NN(c4ccccc4)C(c4ccc(C(F)(F)F)cc4)C3)c(O)c2cc1C	Isoniazid-resistant	agar	INHR-MTB		MIC90			28.25 µg/mL
COc1ccc2c(c1)n([O-])c1cc(C#N)ccc1[n+]2=O			KM-R		MIC			>12.5 µg/mL
OCCCCCNCCNCCCCc1ccccc1					MIC			25 µM
CO[C@H]1/C=C/O[C@@]2(C)Oc3c(C)c(O)c4c(O)c(c(SCN5CCCC5)c(O)c4c3C2=O)NC(=O)/C(C)=C\C=C\[C@H](C)[C@H](O)[C@@H](C)[C@@H](O)[C@@H](C)[C@H](OC(C)=O)[C@@H]1C					MIC			0.05 µg/mL
O=C(Oc1ccc(Cl)cc1C(=O)Nc1ccc(Cl)c(Cl)c1)c1cnccn1			extensively drug resistant strain		MIC			3.16–6.32 µM
OCCOCn1cc(Cn2ncc3c(SCc4ccccc4)ncnc32)nn1		BACTEC	H37Rv		inhibition	6.25 µg/mL		52%
O=c1oc2ccccc2c(O)c1C1=NNC(c2ccc(O)cc2O)C1	Isoniazid-resistant	agar	INHR-MTB		MIC90			>6.25 µg/mL
N[C@@H]1CN(c2c(F)cc3c(=O)c(C(=O)O)cn([C@@H]4C[C@@H]4F)c3c2Cl)CC12CC2	Gyrase Ala90Val	resazurin	Clinical strain		MIC			0.125–0.5 µg/mL
Cc1ccc2[nH]c3ccccc3c2c1			H37Rv		MIC			>128 µg/mL
CCCCCCC(C)c1ccc2c(c1)C(=O)c1nc3ccncc3c(=O)n1-2			H37Rv		MIC			0.015 µg/mL
COc1ccc(CNCCNCCCc2ccccc2)cc1OC					MIC			50 µM
O=C1c2cc(I)ccc2-n2c1nc1ccccc1c2=O			H37Rv		MIC			0.13 µg/mL
OCCOCn1nncc1Cn1ncc2c(SCc3ccccc3)ncnc21		BACTEC	H37Rv		EC50			>12.5 µg/mL
CO[C@H]1/C=C/O[C@@]2(C)Oc3c(C)c(O)c4c(O)c(c(SCCN)c(O)c4c3C2=O)NC(=O)/C(C)=C\C=C\[C@H](C)[C@H](O)[C@@H](C)[C@@H](O)[C@@H](C)[C@H](OC(C)=O)[C@@H]1C					MIC			0.5 µg/mL
COc1cccc(/C=C/C(=O)c2c(O)c3ccccc3oc2=O)c1O		agar	H37Rv		MIC90			>6.25 µg/mL
O=C(Oc1ccc(Cl)cc1C(=O)Nc1cccc(C(F)(F)F)c1)c1cnccn1			multidrug resistant 53/2009	21 d	MIC			2 µM
Cc1ccc2c(c1)C(=O)c1nc3ccncc3c(=O)n1-2			H37Rv		MIC			0.13 µg/mL
c1cc(NCCNC23CC4CC(CC(C4)C2)C3)c2cccnc2c1					MIC			6.25 µM
O=C(O)c1ccc(-n2c(-c3ccncc3)n[nH]c2=S)cc1O		resazurin	H37Rv		inhibition	12.5 µg/mL		90%
NNC(=O)c1ccncc1	DG167-resistant	resazurin	DRM167 32x2		MIC			0.19 µM
Cc1cc2cccnc2c2ncccc12		BACTEC	H37Rv		MIC		VERO	3.13 µg/mL
Cc1ccnc(C(N)=Nc2ccc(-c3ccc(-c4ccc(N=C(N)c5cc(C)ccn5)cc4C)o3)c(C)c2)c1					MIC			2 µg/mL
COC(=O)[C@@H]1CN(C(C)=O)C(=O)N1C(=O)OCc1ccccc1		BACTEC	H37Rv		inhibition	12.5 µg/mL		0%
COc1ccc2c(c1)C(=O)c1nc3ccccc3c(=O)n1-2			H37Rv		MIC			0.5 µg/mL
C#CCn1ncc2c(SCc3ccccc3)ncnc21		BACTEC	H37Rv		EC50			>12.5 µg/mL
CO[C@H]1/C=C/O[C@@]2(C)Oc3c(C)c(O)c4c(O)c(c(/C=N/N5CCN(C)CC5)c(O)c4c3C2=O)NC(=O)/C(C)=C\C=C\[C@H](C)[C@H](O)[C@@H](C)[C@@H](O)[C@@H](C)[C@H](O)[C@@H]1C					MIC			0.05 µg/mL
COc1cc(C=CC(=O)c2sc(NNC(C)=O)nc2C)ccc1O		resazurin	H37Rv		inhibition	6.25 µg/mL		15%
O=C1c2cc(Cl)ccc2-n2c1nc1ccccc1c2=O			H37Rv		MIC			0.06 µg/mL
CO[C@H]1/C=C/O[C@@]2(C)Oc3c(C)c(O)c4c(O)c(/c(=C/NN=O)c(O)c4c3=C2O)NC(=O)/C(C)=C\C=C\[C@H](C)[C@H](O)[C@@H](C)[C@@H](O)[C@@H](C)[C@H](OC(C)=O)[C@@H]1C			H37Rv		EC50			>5 µg/mL
Cc1nc(N)c2ncn([C@@H]3O[C@H](CO)[C@@H](O)[C@H]3O)c2n1			SRICK1 (AK-deficient)		MIC			>50 µg/mL
CC(=O)OCC1=C(C(=O)O)N2C(=O)[C@@H](NC(=O)CSc3ccncc3)[C@H]2SC1					inhibition	100 µg/mL		73%
Nc1ccc(C(=O)O)c(O)c1			H37Rv 331/88	21 d	MIC			62.5 µM
O=[N+]([O-])c1ccc(N=P(c2ccccc2)(c2ccccc2)c2ccccc2)n2nnnc12		resazurin	H37Rv		inhibition	6.25 µg/mL		29%
NNC(=O)c1ccncc1	MDR	resazurin / fluorescence	Jal 1934		MIC			>100 µg/mL
O=C(Oc1cc(Cl)ccc1C(=O)Nc1ccc(C(F)(F)F)cc1)c1cnccn1			multidrug resistant 53/2009	14 d	MIC			0.125 µM
C=C1C(=O)C23CC1CCC2C12CO[C@H](O)[C@H]1C(C)(C)[C@H](OC(C)=O)C[C@H]2OC3=O		BACTEC	H37Rv		MIC			≥12.5 µg/mL
O=C(Oc1cc(Cl)ccc1C(=O)Nc1ccc(Br)cc1)c1cnccn1			H37Rv 331/88	21 d	MIC			2 µM
Cc1ccc2sc3cc(=O)cc(C)c-3nc2c1		BACTEC	H37Rv		MIC bound			≤12.5 µg/mL
NNC(=O)c1ccncc1	Isoniazid-resistant	agar	INHR-MTB		MIC90			11.37 µg/mL
C[C@]1(COc2ccc(N3CCC(Oc4ccc(OC(F)(F)F)cc4)CC3)cc2)Cn2cc([N+](=O)[O-])nc2O1			56 strains (EMB-susceptible)		MIC90			0.012 µg/mL
CO[C@H]1/C=C/O[C@@]2(C)Oc3c(C)c(O)c4c(O)c(c(/C=N/NC(N)=O)c(O)c4c3C2=O)NC(=O)/C(C)=C\C=C\[C@H](C)[C@H](O)[C@@H](C)[C@@H](O)[C@@H](C)[C@H](OC(C)=O)[C@@H]1C			H37Rv		EC50			5 µg/mL
Cn1c2ccccc2c2nnc(N/N=C/c3cccnc3)nc21		resazurin	H37Rv		inhibition	6.25 µg/mL		72%
C#CCn1ncc2c(SC)ncnc21		BACTEC	H37Rv		EC50			<12.5 µg/mL
CCOC(=O)C1=C(Nc2ccc(F)cc2)C(=O)N(CC)C1		BACTEC	H37Rv		MIC bound			>12.8 µg/mL
COc1ccc(CCNCCNCCc2ccccc2F)cc1					MIC			12.5 µM
NCc1ccccc1CC(=O)N[C@@H]1C(=O)N2C(C(=O)O)=C(CSc3nnnn3CC(=O)O)CS[C@H]12		broth dilution	65 isolates		inhibition	12.5 µg/mL		62%
O=C1c2ccccc2-n2c1nc1ncncc1c2=O			H37Rv		MIC			4 µg/mL
c1ccc(/C(=N/Nc2ccccn2)c2ccccn2)cc1		BACTEC	H37Rv		MIC			≥12.5 µg/mL
Cc1cc2oc(=O)c(C(=O)/C=C/c3ccc(Cl)cc3Cl)c(O)c2cc1C	Isoniazid-resistant	agar	INHR-MTB		MIC90			>6.25 µg/mL
CC1(C)Oc2ccc3ccc(=O)oc3c2C(O)C1O		BACTEC	H37Rv		MIC bound			>12.5 µg/mL
Cc1c(O)c2c(c3c1O[C@](C)(O)C3=O)C(=O)C=C(N)C2=O					MIC			>20 µg/mL
CCCCCCCCCCCNCCNC1CCCC1					MIC			50 µM
CCN(CC)CCn1c2ccccc2c(=O)c2c(O)ccc(O)c21		resazurin	H37Rv		inhibition	6.25 µg/mL		7%
Cc1c(N2C(=O)CC(=O)N(c3ccc(C(=O)O)c(O)c3)C2=S)c(=O)n(-c2ccccc2)n1C		resazurin	H37Rv		inhibition	12.5 µg/mL		88%
CC[C@H](CO)NCCNC[C@]1(C)CCC[C@]2(C)c3ccc(C(C)C)cc3CC[C@@H]12					MIC			50 µM
COc1cc(/C=N/NC(=O)CCCCCCCCC(=O)N/N=C/c2ccc(O)c(OC)c2)ccc1O		BACTEC	H37Rv		MIC bound			>12.5 µg/mL
Cn1nnnc1SCC1=C(C(=O)O)N2C(=O)[C@@H](NC(=O)[C@H](O)c3ccccc3)[C@H]2SC1					inhibition	100 µg/mL		0%
CCN(CC)CC[n+]1ccc2c(C)c3[nH]c4ccccc4c3c(C)c2c1		resazurin	H37Rv		inhibition	6.25 µg/mL		103%
CO[C@H]1/C=C/O[C@@]2(C)Oc3c(C)c(O)c4c(O)c(c(/C=N/N(C)C)c(O)c4c3C2=O)NC(=O)/C(C)=C\C=C\[C@H](C)[C@H](O)[C@@H](C)[C@@H](O)[C@@H](C)[C@H](OC(C)=O)[C@@H]1C			H37Rv		EC50			0.1 µg/mL
CCN(CC)c1ccc(N=Nc2ccc(S(=O)(=O)O)cc2)cc1		resazurin	H37Rv		inhibition	6.25 µg/mL		2%
Cc1c(NC(=S)Nc2ccc(C(=O)O)c(O)c2)c(=O)n(-c2ccccc2)n1C		resazurin	H37Rv		inhibition	12.5 µg/mL		85%
CCOC(=O)Nn1c(C)c(C(N)=O)c(C(=O)OC)c1C		resazurin	H37Rv		MIC bound			>6.25 µg/mL
CO[C@H]1/C=C/O[C@@]2(C)Oc3c(C)c(O)c4c(O)c(c(/C=N/N(OC)OC)c(O)c4c3C2=O)NC(=O)/C(C)=C\C=C\[C@H](C)[C@H](O)[C@@H](C)[C@@H](O)[C@@H](C)[C@H](OC(C)=O)[C@@H]1C			H37Rv		EC50			5 µg/mL
CC[C@]1(OC(=O)CN2CCN(CCO)CC2)C(=O)OCc2c1cc1n(c2=O)Cc2cc3ccccc3nc2-1.Cl.Cl		BACTEC	H37Rv		MIC bound			>12.8 µg/mL
CCCCC(CC)CN1CN(CC(CC)CCCC)CC(C)(NCCNC(C)Cc2ccc(Cl)cc2)C1					MIC			50 µM

8 of the rows above, restated:

compound | changes | method | strain | conditions | endpoint | dose | cell line | result
NNC(=O)c1ccncc1 | MDR | resazurin / fluorescence | Jal 1934 |  | MIC |  |  | >100 µg/mL
C#CCn1ncc2c(SCc3ccccc3)ncnc21 |  | BACTEC | H37Rv |  | EC50 |  |  | >12.5 µg/mL
CO[C@@H]1C[C@@H](C[C@H]2CC[C@H](C)[C@H]([C@@H](C)C(=O)O)O2)O[C@]2(O[C@](C)([C@H]3CC[C@@](C)([C@@H]4O[C@@H]([C@H]5O[C@@](O)(CO)[C@H](C)C[C@@H]5C)C[C@@H]4C)O3)C[C@H]2C)[C@@H]1C |  | resazurin | H37Rv |  | MIC |  |  | 1.25 µg/mL
COc1ccc2c(c1)n([O-])c1cc(C#N)ccc1[n+]2=O |  |  | KM-R |  | MIC |  |  | >12.5 µg/mL
COc1cc(C2=NN(C(=O)COc3ccc4ccccc4c3)[C@H](Cc3ccccc3)C2)c(C)cc1OCC(=O)O |  |  | Isoniazid-resistant |  | inhibition | 6.25 µg/mL |  | 20%
COc1ccc2c(c1)C(=O)c1nc3ccccc3c(=O)n1-2 |  |  | H37Rv |  | MIC |  |  | 0.5 µg/mL
N[C@@H]1CN(c2c(F)cc3c(=O)c(C(=O)O)cn([C@@H]4C[C@@H]4F)c3c2Cl)CC12CC2 | Gyrase Ala90Val | resazurin | Clinical strain |  | MIC |  |  | 0.125–0.5 µg/mL
Nc1ccc(C(=O)O)c(O)c1 |  |  | H37Rv 331/88 | 21 d | MIC |  |  | 62.5 µM